A mixed list of measured activities; the numbers were collected in NIAID ChemDB.

All rows: tests in culture; species: HIV-1

Blank or dashed fields: not listed here. Rows are shuffled and stem from different studies. ECn: concentration that inhibits the pathogen or its effect by n%.

| smiles | mutations | conditions | strain or isolate | measure | method | cell line | value |
|---|---|---|---|---|---|---|---|
| Nc1ccn([C@@H]2CS[C@H](CO)O2)c(=O)n1 | K65R |  |  | EC90 | p24 / ELISA | Primary T lymphocytes | 6 µM |
| CC(C)(C)NC(=O)[C@@H]1C[C@@H]2CCCC[C@@H]2CN1C[C@@H](O)[C@H](Cc1ccccc1)NC(=O)[C@H](CC(N)=O)NC(=O)c1ccc2ccccc2n1 | PR-M46I |  | NL4-3 | EC50 | p24 | MT-4 | <0.025 µM |
| Cc1cn([C@@H]2O[C@H](CO[Si](C)(C)C(C)(C)C)C3(OS(=O)(=O)C=C3N)[C@H]2O[Si](C)(C)C(C)(C)C)c(=O)n(C)c1=O |  |  | IIIB | EC50 | p24 | PBL | 0.046 µM |
| CCC[C@@]1(CCc2ccccc2)CC(O)=C([C@H](CC)c2cccc(NS(=O)(=O)c3ccc(C(F)(F)F)cn3)c2)C(=O)O1 |  |  | 472 clinical isolates AZT-resistant | EC50 | p24 | PBMC | <0.03 µM |
| CC(C)=CCN1Cc2cc(Cl)cc3[nH]c(=S)n(c23)C[C@@H]1C | RT-V106A |  | IIIB NEV(RT-V106A) | EC50 | syncytia | CEM | 0.5 µg/mL |
| CCCc1cc(=O)oc2c3c(c4c(c12)OC(C)(C)C=C4)O[C@H](C)[C@@H](C)[C@@H]3O | RT-Y188H |  | Costatolide-resistant (RT Y188H) | EC50 | XTT | CEM + CEM-SS | >27 µM |
| CCc1cc(NCc2nc3c(Cl)ccc(Cl)c3o2)c(=O)[nH]c1C | RT-Y188H |  | IIIB HEPT-resistant (RT Y188H) | EC50 | syncytia | CEM | 1.5 µg/mL |
| Cc1cn([C@H]2C[C@H](N=[N+]=[N-])[C@@H](CO)O2)c(=O)[nH]c1=O | A62V V75I F77L F116Y Q151M |  |  | EC50 | p24 / ELISA | Primary T lymphocytes | 4.6 µM |
| CC(C)=CCN1Cc2cc(Cl)cc3[nH]c(=S)n(c23)C[C@@H]1C | RT-K103N |  | TIBO-2(RT-K103N) | EC50 | syncytia | CEM | 13 µM |
| Cc1cn([C@@H]2O[C@H](CO)C3(OS(=O)(=O)C=C3N)[C@H]2O)c(=O)[nH]c1=O |  |  | IIIB | EC50 | syncytia | MOLT-4 | >55 µM |
| Cc1cn([C@H]2C[C@H](N=[N+]=[N-])[C@@H](CO)O2)c(=O)[nH]c1=O | RT-Y181C |  | UC38-resistant (RT Y181C) | EC50 | XTT | CEM + CEM-SS | 0.01 µM |
| Cc1cn([C@H]2C=C[C@@H](COP(=O)(O)O)O2)c(=O)[nH]c1=O |  |  |  | EC50 |  | CEM + CEM TK- | 24 µM |
| Cc1ccnc2c1NC(=O)c1cccnc1N2C1CC1 |  |  | HXB2 | EC50 | p24 | C8166 | 0.06 µM |
| C=CCn1c(=O)c(C)cn([C@@H]2O[C@H](CO[Si](C)(C)C(C)(C)C)C3(OS(=O)(=O)C=C3N)[C@H]2O[Si](C)(C)C(C)(C)C)c1=O |  |  | IIIB | EC50 | syncytia | CEM | 0.111 µM |
| CCNc1cccnc1N1CCN(C(=O)c2cc3cc(OC)ccc3[nH]2)CC1 | RT-Y181C |  | IIIB E-EBU(RT-Y181C) | EC50 | syncytia | CEM | 9 µg/mL |
| Cc1cn([C@H]2C[C@H](F)[C@@H](CO)O2)c(=O)[nH]c1=O |  |  | 4718 | EC50 | ELISA | PBMC | 0.005 µM |
| Nc1nc(N)c2ncn([C@H]3CO[C@@H](CO)O3)c2n1 |  |  |  | EC50 |  | MT-2 | 3.3 µM |
| CCOCn1c(Cc2ccccc2)c(CC)c(=O)[nH]c1=O | RT-Y181C |  | IIIB E-EBU(RT-Y181C) | EC50 | syncytia | CEM | ≥20 µg/mL |
| Cc1ccnc2c1NC(=O)c1cccnc1N2C1CC1 |  |  | NL4-3 | EC50 | XTT | CEM + CEM-SS | 0.02 µM |
| O=c1[nH]cnc2c1ncn2C1CC[C@@H](CO)O1 | M184V |  |  | EC90 | p24 / ELISA | Primary T lymphocytes | 44.9 µM |
| Cc1cn([C@H]2C[C@H](N=[N+]=[N-])[C@@H](CO)O2)c(=O)[nH]c1=O |  |  | LAV-1 | EC50 | syncytia | MT-2 | <0.3 µM |
| CC(C)=CCOc1cc(NC(=S)c2ccsc2C)ccc1Cl | RT-L100I T139I |  | Costatolide-resistant (RT L100I T139I) | EC50 | XTT | CEM + CEM-SS | 0.08 µM |
| CC[C@H](C)[C@H](NC(=O)c1ccccc1SSc1ccccc1C(=O)N[C@H](C(=O)O)[C@@H](C)CC)C(=O)O |  |  | ROJO | EC50 | p24 / RT activity | PBMC | 13.5 µM |
| Cc1cn([C@@H]2O[C@H](CO[Si](C)(C)C(C)(C)C)C3(OS(=O)(=O)C=C3N)[C@H]2O[Si](C)(C)C(C)(C)C)c(=O)n(C)c1=O | RT-K103N |  | IIIB TIBO R82913-resistant (RT K103N) | EC50 | syncytia | CEM | 0.15 µg/mL |
| CCCc1cc(=O)oc2c3c(c4c(c12)OC(C)(C)C=C4)O[C@@H](C)[C@H](C)[C@@H]3O | RT-Y181C |  | E BPTU-resistant (RT Y181C) | EC50 | XTT | CEM + CEM-SS | <0.08 µM |
| Cc1cn([C@H]2C=C[C@@H](COP(=O)(OCc3ccccc3)OCc3ccccc3)O2)c(=O)[nH]c1=O |  |  |  | EC50 | cytopathic effect | MT-4 | >100 µM |
| O=C1N(Cc2ccc(CO)cc2)[C@H](Cc2ccccc2)[C@H](O)[C@@H](O)[C@@H](Cc2ccccc2)N1Cc1ccc(CO)cc1 | PR-L10R M46I |  | NL4-3 | EC50 | p24 | MT-4 | <0.2 µM |
| CC(=O)c1ccc(C)cc1NC(C(N)=O)c1c(Cl)cccc1Cl |  |  |  | EC50 |  |  | 0.01 µM |
| CC(C)CN(C[C@@H](O)[C@H](Cc1ccccc1)NC(=O)O[C@H]1CCOC1)S(=O)(=O)c1ccc(N)cc1 |  |  | IIIB | EC50 | p24 | CEM + CEM-SS | 0.012 µM |
| CCc1cc(NCc2nc3c(Cl)ccc(Cl)c3o2)c(=O)[nH]c1C | RT-Y188H |  | HEPT (RT Y188H) | EC50 | syncytia | CEM | 4.3 µM |
| Nc1nc(NC2CC2)c2ncn([C@H]3C=C[C@@H](CO)C3)c2n1 | RT-delta67 T69G |  |  | EC50 | p24 | MT-2 | 0.214 µM |
| O=S(=O)(c1ccccc1)c1ccccc1 | RT-Y181C |  | UC781-RS(RT-Y181C | EC50 |  |  | >114 µM |
| Cc1cn([C@H]2C[C@H](N=[N+]=[N-])[C@@H](CO)O2)c(=O)[nH]c1=O |  | clinical isolate | CLADE E | EC50 | cytopathic effect / XTT | PBMC | 0.01 µM |
| CC(C)=CCOc1cc(NC(=S)c2ccsc2C)ccc1Cl | RT-Y181C |  | UC781-RS(RT-Y181C | EC50 |  |  | 0.3 µM |
| CC(C)(C)OC(=O)N[C@@H](Cc1ccccc1)[C@H](O)CNC[C@@H](O)[C@H](Cc1ccc(OCC(=O)N2CCOCC2)cc1)NC(=O)OC(C)(C)C |  |  | RF | EC50 | cytopathic effect / XTT | CEM + CEM-SS | 0.1 µM |
| c1cc(CN2CCCNCCNCCCNCC2)ccc1CN1CCCNCCNCCCNCC1 |  |  | Y181C (subtype B) | EC50 | MTT | MT-4 | 0.002 µg/mL |
| Cc1cn([C@H]2C[C@H](N=[N+]=[N-])[C@@H](CO)O2)c(=O)[nH]c1=O |  |  | CC6 Clinical isolates | EC50 | p24 |  | 0.03 µM |
| CC(C)=CCN1Cc2cccc3[nH]c(=O)n(c23)CC1C |  |  |  | EC50 |  |  | 0.1 µM |
| C=C(C)OC(=O)N1c2cc(Cl)ccc2NC(=S)C1(C)C | RT-Y181I |  | Pyr/BHAP(RT-Y181I) | EC50 | syncytia | CEM | 5.3 µM |
| Cc1cn([C@H]2C[C@H](N=[N+]=[N-])[C@@H](COP(=O)(O)OCc3ccccc3)O2)c(=O)[nH]c1=O |  |  |  | EC50 |  | MT-4 | 0.014 µM |
| Nc1ccn([C@H]2CC[C@@H](CO)O2)c(=O)n1 | RT-K65R |  | Clone ddC-resistant RT K65R | EC50 | syncytia | MT-4 | 0.161 µM |
| CC(C)=CCOc1cc(NC(=S)c2ccoc2C)ccc1Cl | RT-Y181C |  | UC781-RS(RT-Y181C | EC50 |  |  | 1 µM |
| CCc1c(CC2CCCCC2)nc(SCC(=O)c2ccccc2)[nH]c1=O |  |  | NL4-3 | EC50 | p24 / ELISA | C8166 | 0.00774 µM |
| Cc1ccnc2c1NC(=O)c1cccnc1N2C1CC1 |  |  | NL4-3 WT | EC50 | p24 | MT-2 | 0.017 µM |
| Cc1ccnc2c1NC(=O)c1cccnc1N2C1CC1 |  |  | 39RW024 (subtype A) | EC50 | MTT | MT-4 | 0.04 µg/mL |
| Cc1cn([C@H]2C[C@H](N=[N+]=[N-])[C@@H](CO)O2)c(=O)[nH]c1=O |  |  |  | EC50 | cytopathic effect | CEM + CEM TK- | >100 µM |
| CC(C)Nc1cccnc1N1CCN(C(=O)c2cc3ccccc3[nH]2)CC1 | RT-E138K |  | TSAO(RT-E138K) | EC50 | syncytia | CEM | 0.07 µM |

A second listing of 5 rows from above:

smiles	mutations	conditions	strain or isolate	measure	method	cell line	value
CC(C)=CCN1Cc2cc(Cl)cc3[nH]c(=S)n(c23)C[C@@H]1C	RT-V106A		IIIB NEV(RT-V106A)	EC50	syncytia	CEM	0.5 µg/mL
Cc1cn([C@H]2C[C@H](N=[N+]=[N-])[C@@H](CO)O2)c(=O)[nH]c1=O	RT-Y181C		UC38-resistant (RT Y181C)	EC50	XTT	CEM + CEM-SS	0.01 µM
Cc1cn([C@H]2C[C@H](N=[N+]=[N-])[C@@H](CO)O2)c(=O)[nH]c1=O		clinical isolate	CLADE E	EC50	cytopathic effect / XTT	PBMC	0.01 µM
Cc1cn([C@H]2C[C@H](F)[C@@H](CO)O2)c(=O)[nH]c1=O			4718	EC50	ELISA	PBMC	0.005 µM
CCNc1cccnc1N1CCN(C(=O)c2cc3cc(OC)ccc3[nH]2)CC1	RT-Y181C		IIIB E-EBU(RT-Y181C)	EC50	syncytia	CEM	9 µg/mL